Pooled drug test results. Numbers come from NIAID ChemDB, via PubChem.

Shared fields: whole-cell or culture tests; organism: HIV-1; method: p24; measure: inhibition

Percent inhibition refers to the dose given; in toxicity tests it is the harm to the cells. Lines come from different laboratories, so protocols vary.

{"structure": "CCOC(=O)[C@H](CS)NC(=O)CC[C@H](N)C(=O)O", "cells": "H9(HIV-1(IIIB)) + H9", "tested at": "800 µM", "strain or isolate": "IIIB", "value": "80%"}
{"structure": "CCC(C)[C@H](NC(=O)[C@H](C(C)C)[C@@H](O)[C@H](O)[C@H](CC1CCCCC1)NC(=O)c1ccccc1SCCCCC[C@@H]1SC[C@@H]2NC(=O)NC21)C(=O)NCc1ccccn1", "cells": "PBMC", "tested at": "0.01 µM", "strain or isolate": "D34", "value": "5%"}
{"structure": "COc1cc([C@H]2OC[C@H]3[C@@H]2CO[C@@H]3c2ccc3c(c2)OCO3)cc(OC)c1OC", "cells": "H9", "tested at": "10.6 µM", "strain or isolate": "IIIB", "value": "85%"}
{"structure": "CCc1cc(NCc2nc3c(Cl)ccc(Cl)c3o2)c(=O)[nH]c1C", "cells": "PBMC", "tested at": "0.8 µM", "mutations": "RT-M41L D67N T215Y", "strain or isolate": "Clinical isolate (RT M41L D67N T215Y)", "value": "90%"}
{"structure": "Cc1c(CBr)n2c(C[N+](C)(C)C)c(C)c(=O)n2c1=O.[Br-]", "cells": "H9", "tested at": "300 µM", "strain or isolate": "IIIB", "value": "44%"}
{"structure": "c1cc(CN2CCCNCCNCCCNCC2)ccc1CN1CCCNCCNCCCNCC1", "cells": "PBMC", "tested at": "0.1 µM", "strain or isolate": "PCP1 CLADE C R5 CXCR6", "value": "18%"}
{"structure": "O=c1cc(Cc2c(F)cccc2F)nc(SC2CCCC2)[nH]1", "cells": "MT-4", "tested at": "0.3 µM", "strain or isolate": "IIIB", "value": "99.9%"}
{"structure": "NCC(=O)N1CCC[C@H]1C(=O)NCC=O", "cells": "HUT", "tested at": "250 µg/mL", "strain or isolate": "ELI", "value": "0%"}
{"structure": "CNC(=O)c1cc(F)ccc1CNC(=O)c1nc(N2CCCCS2(=O)=O)c2cccnc2c1O", "cells": "MT-4", "tested at": "0.015 µM", "strain or isolate": "IIIB", "value": "95%"}
{"structure": "COc1cc([C@@H]2c3cc4c(cc3[C@H](O)[C@H]3COC(=O)[C@H]23)OCO4)cc(OC)c1OC", "cells": "H9", "tested at": "0.007 µM", "strain or isolate": "IIIB", "value": "89%"}
{"structure": "Cc1cn([C@H]2C[C@H](N=[N+]=[N-])[C@@H](CO)O2)c(=O)[nH]c1=O", "cells": "PBL", "tested at": "1 µM", "strain or isolate": "IIIB", "value": "100%"}
{"structure": "COc1ccc(CN[C@@H](C(=O)N[C@H](C(=O)NCc2nc3ccccc3[nH]2)C(C)C)[C@H](O)[C@H](Cc2ccccc2)NC(=O)[C@@H](NC(=O)OCc2ccccc2)C(C)(C)C)cc1", "cells": "Primary T4 lymphocytes + T4", "conditions": "clinical isolate", "tested at": "0.015 µM", "strain or isolate": "K31", "value": "90%"}
{"structure": "CC(=O)[C@H]1CC[C@H]2[C@@H]3CCC4=CC(=O)CC[C@]4(C)[C@H]3CC[C@]12C", "cells": "U1", "tested at": "1 µM", "value": "54.9%"}
{"structure": "O=C1N(Cc2ccc(CO)cc2)[C@H](Cc2ccccc2)[C@H](O)[C@@H](O)[C@@H](Cc2ccccc2)N1Cc1ccc(CO)cc1", "cells": "PBMC", "tested at": "0.16 µM", "strain or isolate": "Clinical isolate K", "value": "90%"}
{"structure": "COc1ccc(OC[C@H]2CN(C)CC[C@@H]2c2ccccc2)cc1", "cells": "MOLT-3", "tested at": "4 µg/mL", "strain or isolate": "IIIB", "value": "0%"}
{"structure": "O=C1OC(C2OC(=O)c3cc(O)c(O)c(O)c3-c3c(O)c(O)c4oc(=O)c5c(c(O)c(O)c6oc(=O)c3c4c65)-c3c(cc(O)c(O)c3O)C(=O)OCC2O)C2OC(=O)c3c(c(O)c(O)c(O)c3C2O)-c2c1cc(O)c(O)c2O", "cells": "H9", "tested at": "20 µg/mL", "strain or isolate": "IIIB", "value": "90%"}
{"structure": "O=C(O)c1cc(O)c(O)c(O)c1", "cells": "MOLT-3", "tested at": "10 µg/mL", "strain or isolate": "IIIB", "value": "36%"}
{"structure": "CC[C@H](C)C(=O)O[C@H]1C[C@@H](C)C=C2C=C[C@H](C)[C@H](CC[C@@H]3C[C@@H](O)CC(=O)O3)[C@H]21", "cells": "PBMC", "tested at": "50 µM", "strain or isolate": "92RW009 R5X4 clinical variant", "value": "75.3%"}
{"structure": "Nc1ncnc2c1ncn2[C@@H]1O[C@H](COP(=O)(O)OP(=O)(O)OP(=O)(O)O)[C@@H](O)[C@H]1O", "cells": "MOLT4 + MOLT-4", "tested at": "1826 µM", "strain or isolate": "IIIB", "value": ">25%"}
{"structure": "COc1c(C)c2c(c(O)c1C/C=C(\\C)CCC(=O)O)C(=O)OC2", "cells": "PBMC", "tested at": "1 µM", "strain or isolate": "NL4-3", "value": "25%"}
{"structure": "CCC[C@@]1(CCc2ccccc2)CC(O)=C([C@H](CC)c2cccc(NS(=O)(=O)c3ccc(C(F)(F)F)cn3)c2)C(=O)O1", "cells": "PBMC", "tested at": "0.17 µM", "strain or isolate": "Isolate N. Amer 5", "value": "90%"}
{"structure": "CC(=O)N1CCC(C(=O)N(CCCN2CCC(Cc3ccc(C(N)=O)cc3)CC2)c2ccc(C)c(Cl)c2)CC1", "cells": "PBMC", "tested at": "0.028 µM", "strain or isolate": "HNK R5 clinical isolate", "value": "90%"}
{"structure": "CN(C[C@@H](CCN1CCC2(CC1)CS(=O)c1ccccc12)c1cccc(Cl)c1)S(=O)(=O)c1ccccc1", "cells": "PBMC", "tested at": "12.5 µM", "strain or isolate": "YU-2 (M-tropic)", "value": "95%"}
{"structure": "COC(=O)[C@@H]1C2CCC(C[C@@H]1OC(=O)c1ccccc1)N2C", "cells": "U-937", "tested at": "50 µg/mL", "strain or isolate": "IIIB", "value": "<0%"}
{"structure": "C/C(=C(/CCO)SSCC1CCCO1)N(C=O)Cc1cnc(C)nc1N", "cells": "CEM/HIV-1(LAV-1) + CEM", "tested at": "50 µM", "strain or isolate": "LAV-1", "value": "95%"}
{"structure": "O=S(=O)(O)c1cc(N=C=S)ccc1/C=C/c1ccc(N=C=S)cc1S(=O)(=O)O", "cells": "C8166", "tested at": "50 µg/mL", "strain or isolate": "RF", "value": "67%"}
{"structure": "NCC(=O)N1CCC[C@H]1C=O", "cells": "H9", "tested at": "25 µg/mL", "strain or isolate": "IIIB", "value": "62.1%"}
{"structure": "CC(C)(C)NC(=O)[C@@H]1C[C@@H]2CCCC[C@@H]2CN1C[C@@H](O)[C@H](Cc1ccccc1)NC(=O)[C@H](CC(N)=O)NC(=O)c1ccc2ccccc2n1", "cells": "MT-2", "tested at": "0.0151 µM", "mutations": "PR-L90M", "strain or isolate": "HXB2", "value": "90%"}
{"structure": "Cc1ccc(-c2ccc3c(c2)C=C(C(=O)Nc2ccc(C[N+](C)(C)C4CCOCC4)cc2)CCC3)cc1", "cells": "PBMC", "tested at": "0.027 µM", "strain or isolate": "CTV", "value": "90%"}
{"structure": "CCc1cc(NCc2nc3c(C)ccc(C)c3o2)c(=O)[nH]c1C", "cells": "MT-4", "tested at": "0.05 µM", "strain or isolate": "RF", "value": "95%"}
{"structure": "COc1cc(C[C@@]2(O)C(=O)OC[C@@H]2Cc2ccc(OC)c(OC)c2)ccc1O", "cells": "H9", "tested at": "0.52 µM", "strain or isolate": "IIIB", "value": "40%"}
{"structure": "CC1(C)Oc2ccc3ccc(=O)oc3c2[C@@H](OC(=O)C23CCC(C)(C(=O)O2)C3(C)C)[C@H]1OC(=O)C12CCC(C)(C(=O)O1)C2(C)C", "cells": "Monocytes", "conditions": "28 d", "tested at": "0.000016 µM", "value": "47.8%"}
{"structure": "Cc1cn([C@H]2C[C@H](N=[N+]=[N-])[C@@H](CO)O2)c(=O)[nH]c1=O", "cells": "MT-2", "tested at": "0.026 µg/mL", "strain or isolate": "IIIB", "value": "70%"}
{"structure": "c1cc2c(cc1[C@H]1OC[C@H]3[C@@H]1CO[C@@H]3c1ccc3c(c1)OCO3)OCO2", "cells": "H9", "tested at": "8.2 µM", "strain or isolate": "IIIB", "value": "97%"}
{"structure": "CN=C1CN=C(c2ccc[nH]2)c2cc(Cl)ccc2N1", "cells": "PBL", "tested at": "3 µM", "strain or isolate": "N1T", "value": "90%"}
{"structure": "c1cc(CN2CCCNCCNCCCNCC2)ccc1CN1CCCNCCNCCCNCC1", "cells": "U87 (CD4+ CCR5+) + U87", "tested at": "0.1 µM", "strain or isolate": "HE R5X4", "value": "5%"}
{"structure": "Cc1cn([C@H]2C[C@H](N=[N+]=[N-])[C@@H](CO)O2)c(=O)[nH]c1=O", "cells": "Macrophages (GM-CSF) + Macrophage", "tested at": "0.5 µM", "strain or isolate": "BaL", "value": ">99%"}
{"structure": "COc1ccc(OC[C@@H]2CN(C)CC[C@H]2c2ccccc2)cc1", "cells": "MOLT-3", "tested at": "10 µg/mL", "strain or isolate": "IIIB", "value": "48%"}
{"structure": "CCOCn1c(Cc2ccccc2)c(C(C)C)c(=O)[nH]c1=O", "cells": "MT-4", "tested at": "0.082 µM", "strain or isolate": "IIIB", "value": "99.9%"}
{"structure": "Nc1nc(NC2CC2)c2ncn([C@H]3C=C[C@@H](CO)C3)c2n1", "cells": "PBMC", "tested at": "4 µM", "strain or isolate": "IIIB", "value": "95%"}
{"structure": "N[C@@H](CCC(=O)N[C@@H](CS)C(=O)NCC(=O)O)C(=O)O", "cells": "MOLT-4", "tested at": "3000 µM", "strain or isolate": "IIIB", "value": "30%"}
{"structure": "CCC(c1cc(=O)[nH]c(SC2CCCC2)n1)c1c(F)cccc1F", "cells": "MT-4", "tested at": "0.19 µM", "strain or isolate": "IIIB", "value": "99.9%"}
{"structure": "O=Nc1c(-c2c(O)[nH]c3ccccc23)[nH]c2ccccc12", "cells": "U1", "tested at": "4 µM", "value": "58%"}
{"structure": "Cc1cn([C@H]2C[C@H](N=[N+]=[N-])[C@@H](CO)O2)c(=O)[nH]c1=O", "cells": "MT-4", "tested at": "0.625 µM", "strain or isolate": "IIIB", "value": "99.62%"}
{"structure": "CC(C)(C)NC(=O)[C@@H]1CCCN1C(=O)[C@@H](O)[C@H](Cc1ccccc1)NC(=O)[C@H](CC(N)=O)NC(=O)c1cnc2ccccc2n1", "cells": "CEM", "tested at": "0.5 µM", "strain or isolate": "IIIB", "value": "90%"}
{"structure": "CN=C1CN(c2ccccc2)Cc2nc(Cl)ccc2N1", "cells": "MT-4", "tested at": "10 µg/mL", "strain or isolate": "BRU", "value": "43.1%"}
{"structure": "O=C(NCc1ccc(F)cc1)c1nc(N2CCCCS2(=O)=O)c2cccnc2c1O", "cells": "MT-4", "tested at": "0.1 µM", "strain or isolate": "IIIB", "value": "95%"}
{"structure": "COc1cc(C[C@H](C)[C@H](C)Cc2ccc(O)c(O)c2)ccc1O", "cells": "PBMC", "tested at": "30 µg/mL", "strain or isolate": "WM", "value": "87%"}
{"structure": "Nc1ncnc2c1ncn2[C@@H]1O[C@H](CO)[C@@H](O)[C@H]1O", "cells": "MOLT4 + MOLT-4", "tested at": "1531 µM", "strain or isolate": "IIIB", "value": ">25%"}
{"structure": "NCC(=O)N1CCC[C@H]1C(=O)NCC(=O)N[C@H](C=O)CCCN=C(N)N", "cells": "HUT", "tested at": "250 µg/mL", "strain or isolate": "ELI", "value": "73.6%"}
{"structure": "CCCCCN1CC[C@H](c2ccc(F)cc2)[C@@H](COc2ccc3c(c2)OCCO3)C1", "cells": "MOLT-3", "tested at": "4 µg/mL", "strain or isolate": "IIIB", "value": "17%"}
{"structure": "CC(C)[C@H](NC(=O)c1ccc2ccccc2n1)C(=O)N[C@@H](Cc1ccccc1)[C@H](O)CN1CC[C@@H](OCc2ccncc2)C[C@H]1C(=O)NC(C)(C)C", "cells": "PBMC", "tested at": "0.091 µM", "strain or isolate": "Wg3523", "value": "90%"}
{"structure": "O=S(=O)([O-])[O-].[O]=[V+2]", "cells": "HUT/CCR5 + HUT", "conditions": "7 d", "tested at": "5 µM", "strain or isolate": "BaL", "value": "36%"}
{"structure": "Oc1ccc(/C=C/c2cc(O)cc(O)c2)cc1", "cells": "PBMC (resting) + PBMC", "tested at": "5 µM", "strain or isolate": "IIIB", "value": "60%"}
{"structure": "Cc1cn([C@H]2C[C@H](N=[N+]=[N-])[C@@H](CO)O2)c(=O)[nH]c1=O", "cells": "MT-4", "tested at": "0.001 µg/mL", "strain or isolate": "BRU", "value": "92.2%"}
{"structure": "CC(C)(O)c1cccc(CN2C(=O)N(Cc3cccc(C(C)(C)O)c3)[C@H](Cc3ccccc3)[C@H](O)[C@@H](O)[C@H]2Cc2ccccc2)c1", "cells": "MT-2/MT-4 + MT-2", "tested at": "0.0722 µM", "mutations": "PR-184V", "strain or isolate": "HXB2", "value": "90%"}
{"structure": "Cc1c(Cc2c(F)cccc2F)nc(SC2CCCC2)[nH]c1=O", "cells": "MT-4", "tested at": "0.15 µM", "strain or isolate": "IIIB", "value": "99.9%"}
{"structure": "Cc1cn([C@H]2C[C@H](N=[N+]=[N-])[C@@H](CO)O2)c(=O)[nH]c1=O", "cells": "Macrophage + Monocytes/macrophages", "tested at": "0.1 µM", "strain or isolate": "BaL", "value": "87%"}
{"structure": "CNc1ncnc2nc[nH]c12", "cells": "MOLT4 + MOLT-4", "tested at": "388 µM", "strain or isolate": "IIIB", "value": ">25%"}
{"structure": "Cc1cn([C@H]2C[C@H](N=[N+]=[N-])[C@@H](CO)O2)c(=O)[nH]c1=O", "cells": "HUT/CCR5 + HUT", "conditions": "3 d", "tested at": "0.5 µM", "strain or isolate": "BaL", "value": "97%"}
{"structure": "Nc1ncc2[nH]cnc2n1", "cells": "MOLT4 + MOLT-4", "tested at": "612 µM", "strain or isolate": "IIIB", "value": ">25%"}
{"structure": "COc1ccc(CN[C@@H](C(=O)N[C@H]2c3ccccc3C[C@H]2O)[C@H](O)[C@H](Cc2ccccc2)NC(=O)[C@@H](NC(=O)OCc2ccccc2)C(C)(C)C)cc1", "cells": "U-937", "tested at": "0.21 µM", "strain or isolate": "IIIB", "value": "90%"}
{"structure": "COc1ccc(OC[C@H]2CNCC[C@@H]2c2ccc(F)cc2)cc1", "cells": "MOLT-3", "tested at": "4 µg/mL", "strain or isolate": "IIIB", "value": "0%"}
{"structure": "CC(C)[C@H](NC(=O)c1ccccn1)C(=O)N[C@@H](Cc1ccccc1)[C@H](O)[C@H](O)[C@H](Cc1ccccc1)NC(=O)[C@@H](NC(=O)c1ccccn1)C(C)C", "cells": "MT-4", "tested at": "48 µM", "mutations": "PR-G48V L10F", "strain or isolate": "P14-167(PR-G48V L10F)", "value": "90%"}
{"structure": "NCC(=O)NCC(=O)NCC=O", "cells": "H9", "tested at": "25 µg/mL", "strain or isolate": "IIIB", "value": "0%"}